The assay deals with D. immitis L4 larvae. Description: Dirofilaria immitis, L4 Stage (DiL4) In Vitro Assay. Particulars: ratio of DiMf MED to DiL4 MED. The class given is cell-based.

Take “(3S,6R,9S,12R,15S,18R,21S,24R)-6-benzyl-18-(4-(hydroxy(6-methoxypyridin-3-yl)methyl)benzyl)-3,9,15,21-tetraisobutyl-4,10,12,16,22,24-hexamethyl-1,7,13,19-tetraoxa-4,10,16,22-tetraazacyclotetracosan-2,5,8,11,14,17,20,23-octaone”: the selectivity against D. immitis L4 (DiMf/DiL4) was determined as 20 ×.

The values are drawn from patent US11771738B2 (Zoetis Services LLC, priority 2018, dated 2023).
